This is an account of results in paper PMC7179312 (Antimicrobial Agents and Chemotherapy, 2020).

Where two headings read alike, the source gives them in different places.

One assay addresses T1, KPC-2 (Klebsiella pneumoniae, UniProt Q9F663).
T1 construct: 6xHis (C); made in house; host or cells: E. coli BL21(DE3) pLys, pET28a
The experiment in a line: Kinetics of nitrocefin and ceftazidime hydrolysis by purified enzyme. The assay is classed as biochemical. The following applies: substrate hydrolysis by purified KPC-2. The procedure:
(§1) Enzymes were mixed with various concentrations of nitrocefin in 50 mM sodium phosphate (pH 7.0)–0.1 mg/ml of bovine serum albumin (buffer A), and substrate cleavage was monitored at 490 nm every 10 s for 10 min at 37°C on a SpectraMax plate reader (Molecular Devices, San Jose, CA). Initial rates of nitrocefin cleavage were calculated and used to obtain Km and kcat values with Prism software (GraphPad, San Diego, CA).
(§2) Substrate cleavage was monitored at 260 nm every 30 s at room temperature using a SpectraMax plate reader. The reaction was monitored until OD260 values reached a plateau. Resulting OD260 versus time reaction profiles were fitted to the following equation using Prism software: At = A∞ + (A0 − A∞) × e^−k×t, where At is absorbance at time t, A0 is initial absorbance, and A∞ is final absorbance. In this equation, k = kcat/Km × [E], which allows calculatation of kcat/Km knowing the enzyme concentration ([44]).

A further assay deals with T2, KPC-2 D179Y (Klebsiella pneumoniae, UniProt Q9F663, D178Y).
T2 construct: 6xHis (C); made in house; host or cells: E. coli BL21(DE3) pLys, pET28a
Described as above. The class given is biochemical. The procedure:
as §1, §2

The next assay concerns the target T3, KPC-2 L169P (Klebsiella pneumoniae, UniProt Q9F663, L168P).
T3 construct: 6xHis (C); made in house; host or cells: E. coli (pET28a construct; BL21(DE3) pLys is named only for wild type and D179Y)
The description is as above. The assay is classed as biochemical. To be noted: substrate hydrolysis by purified KPC-2 L169P. The procedure:
as §1, §2

Assay [1] concerns P. aeruginosa PAM1154 carrying pUCP24-KPC-2::D179Y (PAM4639). The experiment in a line: MIC, CLSI broth microdilution. The assay is classed as cell-based, Pseudomonas aeruginosa. The source says: (§3) The effects of KPC mutations on resistance to various antibiotics were investigated. For these studies, pUCP24 plasmids carrying wild-type and mutant blaKPC-2 genes as well as the pUCP24 vector were transformed into PAM1154, an efflux-deficient strain of Pseudomonas aeruginosa. In this host, the effect of β-lactamases on β-lactam MIC is amplified due to the slowed uptake of β-lactams across the low-permeability outer membrane without interference by efflux of either β-lactams or BLIs. Consequently, this host allows detection of β-lactamase activity (as an MIC increase) of low-catalytic-efficiency enzymes that rely heavily on the low permeability of the outer membrane. Using the strain that lacks efflux pumps ensures no interference from efflux in interpreting results. We next evaluated the steady-state protein expression levels in bacterial cells.
(§4) For microbiological studies, wild-type blaKPC-2 and its mutant variants were cloned into the shuttle vector pUCP24. Resulting plasmids were transformed in the efflux-deficient strain of P. aeruginosa PAM1154 using selection on 15 μg/ml of gentamicin. Using a strain of P. aeruginosa as opposed to E. coli as a host for various cloned genes was based on the following consideration. As well documented elsewhere ([41]), P. aeruginosa has a low-permeability outer membrane; consequently, the effect of β-lactamases on MIC is amplified in P. aeruginosa compared to that in E. coli due to the slowed uptake of β-lactams. Thus, this host is appropriate to detect β-lactamase activity (as an MIC increase) of low-catalytic-efficiency enzymes that rely heavily on low permeability of the outer membrane. […] MICs were determined using the Clinical and Laboratory Standards Institute (CLSI) broth microdilution method as described in CLSI document M07-A11 ([42]). […] BLI potency was defined as PV50 (PV, potentiation value). PV50 is the minimal concentration of a BLI that is required to reduce the antibiotic MIC to the middle of the MIC range (E50) where the highest MIC is the MIC for a KPC-producing strain with no inhibitor added and the lowest MIC is the MIC for the vector-only strain, corresponding to the complete inhibition of KPC. E50 is calculated as the square root of the product of the antibiotic MICs for the KPC-producing and the vector-only strains.

Assay [2] relates to P. aeruginosa PAM1154 carrying pUCP24-KPC-2::L169P (PAM4751). The experiment in a line: MIC, CLSI broth microdilution. The class given is cell-based, Pseudomonas aeruginosa.
Excerpt: as §3, §4
In general terms: Broth dilution looks for growth in wells or tubes with falling amounts of substance.

Assay [3] concerns P. aeruginosa PAM1154 carrying KPC-2::D179Y (PAM4639). The experiment in a line: Checkerboard potentiation of antibiotic activity by BLIs. The class given is cell-based, Pseudomonas aeruginosa. To be noted: for Beta-lactam MIC in the presence of BLI: PAM4639 KPC-2 D179Y.
Excerpt: (§5) BLI potency was defined as PV50 (PV, potentiation value) of antibiotic potentiation. PV50 is the concentration of a BLI that is required to reduce the antibiotic MIC to the middle of the MIC range where the highest MIC is the MIC for a KPC-producing strain with no inhibitor added and the lowest MIC is the MIC for the vector-alone strain, which corresponds to complete inhibition of KPC. As a given MIC is directly related to the β-lactamase activity, PV50 might be considered the concentration of a BLI that is required to achieve half-effect of inhibition of β-lactamase activity (in whole cells) to hydrolyze an antibiotic of interest. […] However, the accurate determination of PV50 requires the MIC range to be relatively wide.
as §4
(§6) […]
(§7) […]

Assay [4] has as its system P. aeruginosa PAM1154 carrying KPC-2::L169P (PAM4751). The assay is described as above. The class given is cell-based, Pseudomonas aeruginosa. To be noted: for Beta-lactam MIC in the presence of BLI: PAM4751 KPC-2 L169P.
Excerpt: as §5, §4, §6, §7

The term kcat denotes the maximal rate divided by the concentration of active sites. What is called Km is the substrate concentration at which the rate is half of its maximum. On to `CC(C)(O/N=C(\C(=O)N[C@@H]1C(=O)N2C(C(=O)[O-])=C(C[n+]3ccccc3)CS[C@H]12)c1csc(N)n1)C(=O)O` [Ceftazidime, ceftazidime], for which the kcat was above 2.6 s⁻¹ on KPC-2, 0.0088 ± 0.0003 s⁻¹ at KPC-2 D179Y (substrate hydrolysis by purified KPC-2 D179Y) and 0.093 ± 0.009 s⁻¹ on KPC-2 L169P. The “predicted Km lower than that of wild-type KPC-2” value at KPC-2 D179Y (KPC-2 D179Y) is on record as “more than 2,000 fold”. The Km is around 1 µM on KPC-2 D179Y (KPC-2 D179Y, calculated by division of kcat by kcat/Km, read-out: predicted Km); below 5 µM at KPC-2 D179Y (substrate hydrolysis by purified KPC-2 D179Y, read-out: Km); 27 ± 6 µM at KPC-2 L169P.
For orientation: MIC means the smallest concentration in the dilution series that meets the test's criterion for growth inhibition. Regarding `CCN1CCN(C(=O)N[C@@H](C(=O)N[C@@H]2C(=O)N3[C@@H]2SC(C)(C)[C@@H]3C(=O)O)c2ccccc2)C(=O)C1=O` [Piperacillin, piperacillin], the “reduction of MIC vs wild-type KPC-2 strain” value turned out to be 4 fold in assay [1] (D179Y strain) and 8 fold in assay [2] (L169P strain). Further, the MIC in assay [1] (Pseudomonas aeruginosa, PAM4639, pUCP24-KPC-2::D179Y, drug alone) came out at 32 µg/mL; in assay [2] (Pseudomonas aeruginosa, PAM4751, pUCP24-KPC-2::L169P, drug alone), 16 µg/mL. The “Antibiotic MIC with avibactam at 4 μg/ml” value in assay [3] (PAM4639 KPC-2::D179Y, avibactam 4 μg/ml) worked out at 1 µg/mL; in assay [4] (PAM4751 KPC-2::L169P, avibactam 4 μg/ml), 0.5 µg/mL. The “Antibiotic MIC, No BLI” value in assay [3] (PAM4639 KPC-2::D179Y, no BLI) stood at 32 µg/mL; in assay [4] (PAM4751 KPC-2::L169P, no BLI), 16 µg/mL. Also, the “Antibiotic MIC with vaborbactam at 8 μg/ml” value in assay [3] (PAM4639 KPC-2::D179Y, vaborbactam 8 μg/ml) came to 0.25 µg/mL. Besides, the “Beta-lactam MIC in the presence of BLI” value is 32 µg/mL in assay [3] (avibactam 0 µg/ml); 32 µg/mL in assay [3] (avibactam 0.008 µg/ml); 32 µg/mL in assay [3] (avibactam 0.031 µg/ml); 32 µg/mL in assay [3] (avibactam 0.06 µg/ml); 8 µg/mL in assay [3] (avibactam 0.5 µg/ml); 2 µg/mL in assay [3] (avibactam 1 µg/ml). Besides, the “Beta-lactam MIC in the presence of BLI” value was found to be 2 µg/mL in assay [3] (avibactam 2 µg/ml); 1 µg/mL in assay [3] (avibactam 4 µg/ml); 0.5 µg/mL in assay [3] (avibactam 8 µg/ml); 32 µg/mL in assay [3] (vaborbactam 0 µg/ml); 32 µg/mL in assay [3] (vaborbactam 0.008 µg/ml); 32 µg/mL in assay [3] (vaborbactam 0.031 µg/ml). Besides, the “Beta-lactam MIC in the presence of BLI” value in assay [3] (vaborbactam 0.06 µg/ml) is 32 µg/mL; in assay [3] (vaborbactam 0.5 µg/ml) it was 4 µg/mL; in assay [3] (vaborbactam 1 µg/ml), 1 µg/mL; in assay [3] (vaborbactam 2 µg/ml) it was 0.5 µg/mL; in assay [4] (avibactam 0 µg/ml) it was 16 µg/mL; in assay [4] (avibactam 0.008 µg/ml), 16 µg/mL. Moreover, the “Beta-lactam MIC in the presence of BLI” value in assay [4] (avibactam 0.031 µg/ml) turned out to be 16 µg/mL; in assay [4] (avibactam 0.06 µg/ml), 16 µg/mL; in assay [4] (avibactam 0.5 µg/ml), 4 µg/mL; in assay [4] (avibactam 1 µg/ml), 2 µg/mL; in assay [4] (avibactam 2 µg/ml) it was 1 µg/mL; in assay [4] (avibactam 4 µg/ml), 0.5 µg/mL. The “Beta-lactam MIC in the presence of BLI” value worked out at 0.03 µg/mL in assay [4] (avibactam 64 µg/ml); 16 µg/mL in assay [4] (vaborbactam 0 µg/ml); 16 µg/mL in assay [4] (vaborbactam 0.008 µg/ml); 16 µg/mL in assay [4] (vaborbactam 0.031 µg/ml); 16 µg/mL in assay [4] (vaborbactam 0.06 µg/ml); 4 µg/mL in assay [4] (vaborbactam 0.5 µg/ml). Besides, the figures for the “Beta-lactam MIC in the presence of BLI” value in assay [4] (vaborbactam 1 µg/ml) and in assay [4] (vaborbactam 2 µg/ml) were 1 µg/mL and 0.5 µg/mL, respectively.
